Compound potency records, mixed from different reports. Data source: NIAID ChemDB in PubChem.

All rows: tests in culture; species: Mycobacterium smegmatis

Conditions beyond the fields shown may differ between rows. MIC50, MIC90 and the like: level of inhibition, or share of isolates inhibited.

{"smiles": "CC(C)c1c(O)cc([C@H](N=C(N)N)C(=O)O)cc1O", "read by": "visual reading", "endpoint": "MIC", "strain": "mc2155", "value": ">500 µg/mL"}
{"smiles": "CCN1CCN(c2nc3c(cc2F)c(=O)c(C(=O)O)cn3C(C)(C)C)CC1", "endpoint": "MIC", "strain": "ATCC 19420", "value": "0.13 µg/mL"}
{"smiles": "COc1ccccc1-c1nn(-c2ccccc2)cc1/C=C/c1nc2sccn2c(=O)c1-c1ccc(C(F)(F)F)cc1", "read by": "colony count", "endpoint": "MIC", "strain": "mc2155", "value": "71 µg/mL"}
{"smiles": "CSC(=S)N/N=C(\\C)c1ccc(OCc2ccc(F)cc2F)cc1", "read by": "resazurin / absorbance", "endpoint": "MIC", "strain": "mc2155", "value": ">100 µM"}
{"smiles": "Cc1c(N2CCNC(C)C2)c(F)cn2c(=O)c(C(=O)O)cc(C3CC3)c12.Cl", "endpoint": "MIC", "strain": "ATCC114", "value": "0.78 µg/mL"}
{"smiles": "CC1CN(c2c(F)cc3c(=O)c(C(=O)O)cn(C4CC4)c3c2Cl)CCN1", "endpoint": "MIC99", "strain": "KD1163 (GRYA+)", "value": "0.029 µg/mL"}
{"smiles": "CCn1cc(C(=O)O)c(=O)c2cc(F)c(N3CCC(CNC)C3)nc21", "endpoint": "MIC", "strain": "ATCC 19420", "value": "1 µg/mL"}
{"smiles": "C=CCc1ccccc1/C=C1\\COc2cc(O)ccc2C1=O", "endpoint": "MIC", "strain": "mc2155", "value": "500 µg/mL"}
{"smiles": "CCn1cc(C(=O)O)c(=O)c2cc(F)c(N3CCC(N)C3)nc21", "endpoint": "MIC", "strain": "ATCC 19420", "value": "1 µg/mL"}
{"smiles": "CCc1cc(C(=O)O)c(=O)n2cc(F)c(N3CCC(N)C3)c(C)c12.Cl", "endpoint": "MIC", "strain": "ATCC114", "value": "0.1 µg/mL"}
{"smiles": "Cc1ccc(-c2nn(-c3ccccc3)cc2/C=C/c2nc3sccn3c(=O)c2-c2ccc(C#N)cc2)cc1", "read by": "colony count", "endpoint": "MIC", "strain": "mc2155", "value": "15 µg/mL"}
{"smiles": "CC(C)=CCc1cc(/C=C/C(=O)c2ccc(O)c(CC=C(C)C)c2O)ccc1O", "endpoint": "MIC", "strain": "ATCC 700084", "value": "9.76 µg/mL"}
{"smiles": "CC1CN(c2cc3c(cc2F)c(=O)c(C(=O)O)cn3C2CC2)CCN1", "endpoint": "MIC99", "strain": "KD2008 (GYRA G89C)", "value": "2.6 µg/mL"}
{"smiles": "CC(=O)O[C@@]12CO[C@@H]1C[C@H](O)[C@@]1(C)C(=O)[C@H](O)C3=C(C)C(OC(=O)/C=C/c4ccc5ccccc5c4)C[C@@](O)([C@@H](OC(=O)c4ccccc4)[C@H]21)C3(C)C", "read by": "agar / colony count / visual reading", "endpoint": "MIC100", "value": "60 µM"}
{"smiles": "COc1cccc(-c2nn(-c3ccccc3)cc2/C=C/c2nc3sccn3c(=O)c2-c2ccc(C#N)cc2)c1", "read by": "colony count", "endpoint": "MIC", "strain": "mc2155", "value": "31 µg/mL"}
{"smiles": "CC(C)c1c(O)cc([C@H](N=C(N)N)C(=O)NCC(=O)O)cc1O", "read by": "visual reading", "endpoint": "MIC", "strain": "mc2155", "value": "20 µg/mL"}
{"smiles": "CC1CN(c2nc3c(cc2F)c(=O)c(C(=O)O)cn3-c2ccc(F)cc2F)CCN1", "endpoint": "MIC", "strain": "ATCC 19420", "value": "0.5 µg/mL"}
{"smiles": "NCC[C@H](O)C(=O)N[C@@H]1C[C@H](N)[C@@H](O[C@H]2O[C@H](CN)[C@@H](O)[C@H](O)[C@H]2O)[C@H](O)[C@H]1O[C@H]1O[C@H](CO)[C@@H](O)[C@H](N)[C@H]1O", "endpoint": "MIC", "strain": "A24001", "value": ">128 µg/mL"}
{"smiles": "C[C@H]1COC2(CCN(c3nc(=O)c4cc(C(F)(F)F)cc(C(=O)O)c4s3)CC2)O1", "read by": "resazurin", "endpoint": "MIC99", "strain": "mc2155", "value": "0.001 µg/mL"}
{"smiles": "Cc1c(N2C[C@@H]3C(N)[C@@H]3C2)c(F)cn2c(=O)c(C(=O)O)cc(C3CC3)c12.Cl", "endpoint": "MIC", "strain": "ATCC114", "value": "0.1 µg/mL"}
{"smiles": "CNCC1CCN(c2nc3c(cc2F)c(=O)c(C(=O)O)cn3C(C)(C)C)C1", "endpoint": "MIC", "strain": "ATCC 19420", "value": "0.13 µg/mL"}
{"smiles": "CC1CN(c2c(F)cc3c(=O)c(C(=O)O)cn(C4CC4)c3c2F)CCN1", "endpoint": "MIC99", "strain": "KD1995 (GYRA D95H)", "value": "1 µg/mL"}
{"smiles": "CC1CN(c2c(F)cc3c(=O)c(C(=O)O)cn(C4CC4)c3c2F)CCN1", "endpoint": "MIC", "strain": "ATCC 19420", "value": "0.25 µg/mL"}
{"smiles": "COc1c(N2CCNC(C)C2)c(F)cc2c(=O)c(C(=O)O)cn(C3CC3)c12", "endpoint": "MIC99", "strain": "KD1991 (GYRA D95Y)", "value": "0.47 µg/mL"}
{"smiles": "COc1c(N2CCC(N)C2)c(F)cc2c(=O)c(C(=O)O)cn(C3CC3)c12", "endpoint": "MIC", "strain": "ATCC 19420", "value": "0.06 µg/mL"}
{"smiles": "Cc1nn(-c2ccccc2)c2c1C(c1cn(-c3ccccc3)nc1-c1ccc(F)cc1)C1=C(NC(C)(c3cc(O)c(I)cc3Cl)NC1=O)O2", "read by": "agar diffusion / agar", "endpoint": "MIC", "strain": "NCIM 5138", "value": "60 µg/mL"}
{"smiles": "Cc1c(N2CCC(n3ccnn3)C2)c(F)cn2c(=O)c(C(=O)O)cc(C3CC3)c12", "endpoint": "MIC", "strain": "ATCC114", "value": "0.39 µg/mL"}
{"smiles": "O=C(O)c1cn(C2CC2)c2c(F)c(N3CCNCC3)c(F)cc2c1=O", "endpoint": "MIC99", "strain": "KD2008 (GYRA G89C)", "value": "0.94 µg/mL"}
{"smiles": "Cc1cccc(-c2nn(-c3ccccc3)cc2/C=C/c2nc3sccn3c(=O)c2-c2ccc(C#N)cc2)c1", "read by": "colony count", "endpoint": "MIC", "strain": "mc2155", "value": "9 µg/mL"}
{"smiles": "Cc1nn(-c2ccccc2)c2c1C(c1cn(-c3ccccc3)nc1-c1ccc(Cl)cc1)C1=C(NC(C)(c3cc(O)c(I)cc3Cl)NC1=O)O2", "read by": "agar diffusion / agar", "endpoint": "MIC", "strain": "NCIM 5138", "value": "70 µg/mL"}
{"smiles": "O=C(O)c1cn(-c2ccc(F)cc2F)c2c(F)c(N3CCNCC3)c(F)cc2c1=O", "endpoint": "MIC", "strain": "ATCC 19420", "value": "1 µg/mL"}
{"smiles": "O=C(O)c1cc(C(F)(F)F)cc2c(=O)nc(N3CCN(CC4CCCCC4)CC3)sc12", "read by": "resazurin", "endpoint": "MIC99", "strain": "GM22", "value": ">100 µg/mL"}
{"smiles": "Cc1c(N2CCC[C@H](N)C2)c(F)cn2c(=O)c(C(=O)O)cc(C3CC3)c12", "endpoint": "MIC", "strain": "ATCC114", "value": "0.1 µg/mL"}
{"smiles": "COc1ccccc1-c1nn(-c2ccccc2)cc1/C=C/c1nc2sccn2c(=O)c1-c1ccc(C#N)cc1", "read by": "colony count", "endpoint": "MIC", "strain": "mc2155", "value": "58 µg/mL"}
{"smiles": "Cc1c(N2CC(N)C3(C2)OCCO3)c(F)cn2c(=O)c(C(=O)O)cc(C3CC3)c12.Cl", "endpoint": "MIC", "strain": "ATCC114", "value": "0.1 µg/mL"}
{"smiles": "CCN1CCN(c2c(F)cc3c(=O)c(C(=O)O)cn(C4CC4)c3c2OC)CC1", "endpoint": "MIC99", "strain": "KD1990 (GYRA D95A)", "value": "0.41 µg/mL"}
{"smiles": "Cc1nn(-c2ccccc2)c2c1C(c1cn(-c3ccccc3)nc1-c1ccc(F)cc1)C1=C(NC(C)(c3cc(O)ccc3Cl)NC1=O)O2", "read by": "agar diffusion / agar", "endpoint": "MIC", "strain": "NCIM 5138", "value": "100 µg/mL"}
{"smiles": "COc1c(N2CCNCC2)c(F)cc2c(=O)c(C(=O)O)cn(-c3ccc(F)cc3F)c12", "endpoint": "MIC", "strain": "ATCC 19420", "value": "2 µg/mL"}
{"smiles": "CCN1CCN(c2c(F)cc3c(=O)c(C(=O)O)cn(C4CC4)c3c2F)CC1", "endpoint": "MIC99", "strain": "KD1987 (GYRA A91V)", "value": "0.97 µg/mL"}
{"smiles": "Cc1ccccc1-c1nn(-c2ccccc2)cc1/C=C/c1nc2sccn2c(=O)c1-c1ccc(C(F)(F)F)cc1", "read by": "colony count", "endpoint": "MIC", "strain": "mc2155", "value": "71 µg/mL"}
{"smiles": "CC1CN(c2cc3c(cc2F)c(=O)c(C(=O)O)cn3C2CC2)CC(C)N1", "endpoint": "MIC99", "strain": "KD1163 (GRYA+)", "value": "0.043 µg/mL"}
{"smiles": "CNCC1COC2(CCN(c3c(F)cn4c(=O)c(C(=O)O)cc(C5CC5)c4c3C)CC2)O1.Cl", "endpoint": "MIC", "strain": "ATCC114", "value": "6.2 µg/mL"}

2 of the rows above, restated:

smiles	read by	endpoint	strain	value
CSC(=S)N/N=C(\C)c1ccc(OCc2ccc(F)cc2F)cc1	resazurin / absorbance	MIC	mc2155	>100 µM
Cc1nn(-c2ccccc2)c2c1C(c1cn(-c3ccccc3)nc1-c1ccc(F)cc1)C1=C(NC(C)(c3cc(O)ccc3Cl)NC1=O)O2	agar diffusion / agar	MIC	NCIM 5138	100 µg/mL